From US7964624B1, “Inhibitors of serine proteases” (priority 2005, dated 2011) come the findings set out here.

Amino acid sequences for entries named in this document (tags omitted). Chains listed by the source or under a name are the forms on record and can include a tag or linker. Residues count along the entry.
UniProt P27958, 1658-1711 partner limits assumed: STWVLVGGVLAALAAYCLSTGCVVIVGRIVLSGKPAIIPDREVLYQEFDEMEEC
UniProt P27958, 1027-1711 with tags or gaps with the stated changes: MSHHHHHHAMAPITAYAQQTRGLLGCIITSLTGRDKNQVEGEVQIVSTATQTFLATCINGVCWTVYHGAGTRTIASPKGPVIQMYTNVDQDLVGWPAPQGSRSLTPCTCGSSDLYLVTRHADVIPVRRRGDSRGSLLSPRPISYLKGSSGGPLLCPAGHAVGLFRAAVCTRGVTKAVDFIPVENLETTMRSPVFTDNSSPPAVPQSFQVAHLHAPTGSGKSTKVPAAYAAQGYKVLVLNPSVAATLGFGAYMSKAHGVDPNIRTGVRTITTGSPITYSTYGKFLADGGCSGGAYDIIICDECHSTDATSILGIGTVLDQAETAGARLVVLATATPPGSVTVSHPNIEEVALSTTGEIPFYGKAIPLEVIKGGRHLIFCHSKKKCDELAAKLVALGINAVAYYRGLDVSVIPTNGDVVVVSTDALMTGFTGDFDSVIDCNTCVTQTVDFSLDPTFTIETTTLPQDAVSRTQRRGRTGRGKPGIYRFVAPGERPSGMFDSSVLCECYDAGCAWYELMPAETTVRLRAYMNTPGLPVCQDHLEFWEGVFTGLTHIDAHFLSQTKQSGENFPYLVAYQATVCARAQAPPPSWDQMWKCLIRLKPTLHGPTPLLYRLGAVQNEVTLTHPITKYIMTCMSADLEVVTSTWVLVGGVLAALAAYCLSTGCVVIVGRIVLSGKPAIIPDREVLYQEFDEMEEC

The structures appear in SMILES notation. Read-outs that look alike come from different tables or passages of the source.

The target in the test is full-length hepatitis C viral protein NS3•4A (Hepatitis C virus genotype 1a, UniProt P27958). Put plainly: HCV NS3 Peptide Cleavage Assay (Enzyme Assay 2), apparent Ki. The text has this: Using standard recombinant DNA techniques, a cDNA fragment encoding the sequence for NS3 and NS4A, residues Ala1027 to Cys1711 from the HCV sub-type strain 1a, containing an N-terminal hexa-histidine sequence, was cloned into the baculoviral transfer vector pVL1392 (Webb N R and Summers M D (1990) Expression of proteins using recombinant baculoviruses, Techniques 2:173-188). […] The transfected insect cells containing recombinant baculovirus clones were subsequently isolated by plaque purification. High-titer clonal baculovirus was routinely used to infect SD insect cells for protein production. In production, Sf9 cells were grown at 27° C. until they reached a density of 2.0×10^6 cells/ml. At this point, the insect cells were infected with virus. After 72 hours or when the cell viability was between 70-80% the culture was harvested and the cells were ready for purification. The NS3•4A protein (SEQ ID NO:1) was purified as follows. Cell paste was thawed in at least five volumes of Lysis Buffer (50 mM Na2HPO4 pH 8.0, 10% Glycerol, 300 mM NaCl, 5 mM β-mercaptoethanol, 0.2 mM PMSF, 2.5 μg/ml Leupeptin, 1.0 μg/mlE64, 2.0 μg/ml Pepstatin) per gram of cell paste. The cell paste was then homogenized on ice using a Dounce homogenizer. The cells were next mechanically disrupted by passing once through a microfluidizer (Microfluidics Corporation, Newton, Mass.), and the cell lysate was collected on ice. The cell lysates was centrifuged at 100,000×g for 30 minutes at 4° C. and the supernatants were decanted. Optionally, the pellets were resuspended in wash buffer (Lysis Buffer+0.1% β-octyl glucopyranoside), homogenized using a Dounce homogenizer and centrifuged at 100,000×g for 30 minutes at 4° C. Insoluble NS3° 4A was extracted from the pellets by resuspending in Extraction Buffer (Lysis Buffer+0.5% lauryl maltoside) using 2.5 ml/g cell paste. The mixture was homogenized using a Dounce homogenizer and mixed at 4° C. for three hours or more. The mixture was centrifuged at 100,000×g for 30 minutes at 4° C. The supernatants were decanted and pooled. The NS3•4A protein was further purified using Nickel-NTA metal affinity chromatography. Imidazole from a 2 M stock, pH 8.0, solution was added to the pooled supernatants so that the final concentration of imidazole was 10 mM. The supernatants were incubated batchwise overnight at 4° C. with Nickel-NTA affinity resin that had been pre-equilibrated with Lysis Buffer+10 mM imidazole. 1 ml of resin per 5 μg of expected NS3-4A was used. The resin was next settled by gravity or by centrifugation at 500×g for five minutes. The resin was next poured into a gravity flow column and washed with 10 or more column volumes of Nickel Wash Buffer (Lysis Buffer+0.1% lauryl maltoside+10 mM imidazole). The column was next eluted with three to four column volumes of Nickel Elution Buffer (Nickel Wash Buffer+300 mM imidazole). The elution fractions were collected on ice and evaluated using SDS-PAGE. To prevent NS3-4A proteolysis, 100 μM DFP protease inhibitor was added to gel samples before adding SDS sample buffer and boiling. The peak fractions were pooled and protein concentration was determined by measuring absorbance at 280 ηm and by dividing by the extinction coefficient (e), which for NS3•4A is 1.01. The NS3•4A was purified further using gel filtration chromatography. A Superdex 200 26/60 column was equilibrated with Superdex Buffer (20 mM HEPES pH 8.0, 10% glycerol, 300 mM NaCl, 10 mM β-mercaptoethanol, 0.05% lauryl maltoside) at a rate of 3 ml/min. The nickel purified NS3•4A was concentrated in a Centriprep 30 to greater than 2 mg/ml, if necessary, and was filtered through a 0.2 μm syringe filter and up to 10 ml was loaded onto the Superdex 200 column. After 0.3 column volumes passed through, 4-5 ml fractions were collected. Fractions were evaluated by SDS-PAGE. NS3•4A protein elutes in two peaks. Peak 1 contains aggregated NS3•4A and peak 2 contains active protein. The fractions of peak 2 were pooled, aliquoted and frozen at −70° C. […]

The mark [1] stands for this setting: read-out: Enzyme Assay 2 (HCV NS3 Peptide Cleavage Assay) activity, apparent Ki class.
[2] abbreviates: read-out: Enzyme Assay 2, HCV NS3 Peptide Cleavage Assay, apparent Ki.

Consider `CCC[C@@H](NC(=O)[C@@H]1C[C@]2(CC(c3cc(C)c(OC)c(C)c3)=NO2)CN1C(=O)[C@@H](NC(=O)OC1CCCC1)C(C)(C)C)C(=O)C(=O)NC`, for which the Ki under setting [1] was over 500 nM.
Take `CCC[C@H](NC(=O)[C@@H]1C[C@]2(CC(c3cc(Cl)c(OC)cc3OCC)=NO2)CN1C(=O)[C@@H](NC(=O)CC1CCCCC1)C(C)(C)C)C(=O)C(=O)NC1CC1`: the Ki under setting [2] is under 100 nM.
On the same count and under the same terms, next, `CNC(=O)C(=O)[C@H](CC1CC1)NC(=O)[C@@H]1C[C@]2(CC(c3cccc4cccnc34)=NO2)CN1C(=O)[C@@H](NC(=O)[C@@H]1C[C@H]1c1ccccc1)C(C)(C)C`: under 100 nM.
Turning to `CNC(=O)C(=O)[C@H](CC1CC1)NC(=O)[C@@H]1C[C@]2(CC(c3cccc(Cl)c3)=NO2)CN1C(=O)[C@@H](NC(=O)OC1CCCC1)C(C)(C)C`, the Ki under setting [2] is under 100 nM.
In the case of `CNC(=O)C(=O)[C@H](CC1CC1)NC(=O)[C@@H]1C[C@]2(CC(c3cc(C)c(OC)c(Cl)c3)=NO2)CN1C(=O)[C@@H](NC(=O)[C@@H]1C[C@H]1c1ccccc1)C(C)(C)C`, the Ki under setting [2] was under 100 nM.
`CCC[C@H](NC(=O)[C@@H]1C[C@]2(CC(c3cccc(Cl)c3)=NO2)CN1C(=O)[C@@H](NC(=O)C1(C)CC1)C(C)(C)C)C(=O)C(=O)NC1CC1`: the Ki under setting [2] fell in the range of 100 to 500 nM.
`CNC(=O)C(=O)[C@H](CC1CC1)NC(=O)[C@@H]1C[C@]2(CC(c3cccc(Cl)c3)=NO2)CN1C(=O)[C@@H](NC(=O)[C@H]1C[C@@H]1C1CCCCC1)C(C)(C)C`: under setting [2], the Ki was 100 to 500 nM.
As to `CCOc1ccc(Cl)cc1C1=NO[C@]2(C1)C[C@@H](C(=O)N[C@@H](CC1CC1)C(=O)C(=O)NC)N(C(=O)[C@@H](NC(=O)CC1CCCCC1)C(C)(C)C)C2`, under setting [2], the Ki is under 100 nM.
For `CCC[C@H](NC(=O)[C@@H]1C[C@]2(CC(c3cc(Cl)c(OCC)cc3OC)=NO2)CN1C(=O)[C@@H](NC(=O)CC1CCCCC1)C(C)(C)C)C(=O)C(=O)NC`, the Ki under setting [2] was under 100 nM.
For the molecule `CCC[C@H](NC(=O)[C@@H]1C[C@]2(CC(c3cc(C)c(OCC)c(Cl)c3)=NO2)CN1C(=O)[C@@H](NC(=O)OC(C)(C)C)C(C)(C)C)C(=O)C(=O)NC`, the Ki under setting [1] is under 100 nM.
For the molecule `CCOc1c(C)cc(C2=NO[C@]3(C2)C[C@@H](C(=O)N[C@@H](CC2CC2)C(=O)C(=O)NC)N(C(=O)[C@@H](NC(=O)[C@@H]2C[C@H]2c2ccccc2)C(C)(C)C)C3)cc1C`, the Ki under setting [2] was under 100 nM.
For `CNC(=O)C(=O)[C@H](CC1CC1)NC(=O)[C@@H]1C[C@]2(CC(c3cccc(Cl)c3)=NO2)CN1C(=O)[C@@H](NC(=O)[C@@H]1[C@@H](C=C(C)C)C1(C)C)C(C)(C)C`, under setting [2], the Ki fell in the range of 100 to 500 nM.
`CNC(=O)C(=O)[C@H](CC1CC1)NC(=O)[C@@H]1C[C@]2(CC(c3cc(Cl)c(OC)cc3OC)=NO2)CN1C(=O)[C@@H](NC(=O)OC(C)(C)C)C(C)(C)C`: under setting [1], the Ki was under 100 nM.
`CCNC(=O)C(=O)[C@H](CC1CC1)NC(=O)[C@@H]1C[C@]2(CC(c3cccc(Cl)c3)=NO2)CN1C(=O)[C@@H](NC(=O)OC1CCCC1)C(C)(C)C`: the Ki under setting [2] is under 100 nM.
On to `CCC[C@H](NC(=O)[C@@H]1C[C@]2(CC(Oc3ccccc3)=NO2)CN1C(=O)[C@@H](NC(=O)OC1CCCC1)C(C)(C)C)C(=O)C(=O)NC1CC1`, for which, under setting [2], the Ki was in the range of 100 to 500 nM.
As to `CNC(=O)C(=O)[C@H](CC1CC1)NC(=O)[C@@H]1C[C@]2(CC(c3cccc(Cl)c3)=NO2)CN1C(=O)[C@@H](NC(=O)[C@@H]1C[C@H]1C(C)C)C(C)(C)C`, under setting [1], the Ki is under 100 nM.
Take `CCC[C@H](NC(=O)[C@@H]1C[C@]2(CC(c3cc(C)c(OC)cc3OC)=NO2)CN1C(=O)[C@@H](NC(=O)CC1CCCCC1)C(C)(C)C)C(=O)C(=O)NC`: the Ki under setting [2] is under 100 nM.
As to `COc1ccc(Cl)cc1C1=NO[C@]2(C1)C[C@@H](C(=O)N[C@@H](CC1CC1)C(=O)C(N)=O)N(C(=O)[C@@H](NC(=O)[C@H]1C[C@@H]1c1ccccc1)C(C)(C)C)C2`, the Ki under setting [2] is under 100 nM.
Take `CCC[C@H](NC(=O)[C@@H]1C[C@]2(CC(c3cccc(Cl)c3)=NO2)CN1C(=O)[C@@H](NC(=O)[C@H]1C[C@@H]1c1c[nH]cn1)C(C)(C)C)C(=O)C(=O)NC1CC1`: the Ki under setting [2] is under 100 nM.
With `COc1cc(OC)c(C2=NO[C@]3(C2)C[C@@H](C(=O)N[C@@H](CC2CC2)C(=O)C(N)=O)N(C(=O)[C@@H](NC(=O)CC2CCCCC2)C(C)(C)C)C3)cc1C`, the Ki under setting [2] is under 100 nM.
With `CCC[C@H](NC(=O)[C@@H]1C[C@]2(CC(c3cc(Cl)c(OC)cc3OC)=NO2)CN1C(=O)[C@@H](NC(=O)[C@H]1C[C@@H]1c1ccccc1)C(C)(C)C)C(=O)C(N)=O`, the Ki under setting [1] is under 100 nM.
On to `CCC[C@H](NC(=O)[C@@H]1C[C@]2(CC(c3cc(C)c(OC)c(C)c3)=NO2)CN1C(=O)[C@@H](NC(=O)OC1CCCC1)C(C)(C)C)C(=O)C(=O)NC1CC1`, for which the Ki under setting [1] is under 100 nM.
For `CCC[C@H](NC(=O)[C@@H]1C[C@]2(CC(c3cccc(Cl)c3)=NO2)CN1C(=O)[C@@H](NC(=O)CC(C)(C)OC)C(C)(C)C)C(=O)C(N)=O`, the Ki under setting [1] was under 100 nM.
The same measure, in the same setting: next, `CCC[C@H](NC(=O)[C@@H]1C[C@]2(CC(c3cc(C)c(OC)c(C)c3)=NO2)CN1C(=O)[C@@H](NC(=O)OC1CCCC1)C(C)(C)C)C(=O)C(=O)NC`: under 100 nM.
Consider `CCC[C@H](NC(=O)[C@@H]1C[C@]2(CC(c3cc(Cl)c(OC)cc3OC)=NO2)CN1C(=O)[C@@H](NC(=O)C1CC1)C(C)(C)C)C(=O)C(=O)NC1CC1`, for which the Ki under setting [2] was under 100 nM.
With `CCOc1c(C)cc(C2=NO[C@]3(C2)C[C@@H](C(=O)N[C@@H](CC2CC2)C(=O)C(=O)NC)N(C(=O)[C@@H](NC(=O)OC(C)(C)C)C(C)(C)C)C3)cc1Cl`, the Ki under setting [2] was under 100 nM.
Take `CNC(=O)C(=O)[C@H](CC1CC1)NC(=O)[C@@H]1C[C@]2(CC(c3cc(C)c(OC)c(C)c3)=NO2)CN1C(=O)[C@@H](NC(=O)[C@@H]1C[C@H]1C(C)C)C(C)(C)C`: under setting [2], the Ki is under 100 nM.
On to `CNC(=O)C(=O)[C@H](CC1CC1)NC(=O)[C@@H]1C[C@]2(CC(c3cccc(Cl)c3)=NO2)CN1C(=O)[C@@H](NC(=O)[C@@H]1C[C@H]1CC(C)C)C(C)(C)C`, for which the Ki under setting [2] was under 100 nM.
The same measure, in the same setting: next, `CNC(=O)C(=O)[C@H](CC1CC1)NC(=O)[C@@H]1C[C@]2(CC(c3cccc(Cl)c3)=NO2)CN1C(=O)[C@@H](NC(=O)[C@@H]1C[C@H]1c1ccco1)C(C)(C)C`: under 100 nM.
On to `CNC(=O)C(=O)[C@H](CC1CC1)NC(=O)[C@@H]1C[C@]2(CC(c3cc(C)c(OC)c(C)c3)=NO2)CN1C(=O)[C@@H](NC(=O)CC1CCCCCC1)C(C)(C)C`, for which the Ki under setting [1] was under 100 nM.
As to `CCC[C@H](NC(=O)[C@@H]1C[C@]2(CC(c3cc(C)c(OC)c(C)c3)=NO2)CN1C(=O)[C@@H](NC(=O)CC1CCCCC1)C(C)(C)OC)C(=O)C(=O)NC1CC1`, the Ki under setting [1] is under 100 nM.
Turning to `COc1cc(OC)c(C2=NO[C@]3(C2)C[C@@H](C(=O)N[C@@H](CC2CC2)C(=O)C(N)=O)N(C(=O)[C@@H](NC(=O)[C@@H]2C[C@H]2c2ccccc2)C(C)(C)C)C3)cc1Cl`, the Ki under setting [2] was under 100 nM.
On to `CCC[C@H](NC(=O)[C@@H]1C[C@]2(CC(c3cc(C)c(OCC)c(C)c3)=NO2)CN1C(=O)[C@@H](NC(=O)OC(C)(C)C)C(C)(C)C)C(=O)C(N)=O`, for which the Ki under setting [2] was under 100 nM.
As for `CCC[C@H](NC(=O)[C@@H]1C[C@]2(CC(c3cc(C)c(OCC)c(Cl)c3)=NO2)CN1C(=O)[C@@H](NC(=O)CC1CCCCC1)C(C)(C)C)C(=O)C(=O)NC`, the Ki under setting [2] lay in the range of 100 to 500 nM.
Take `CCC[C@H](NC(=O)[C@@H]1C[C@]2(CC(c3cc(C)c(O)c(C)c3)=NO2)CN1C(=O)[C@@H](NC(=O)CC1CCCCC1)C(C)(C)C)C(=O)C(=O)NC1CC1`: under setting [2], the Ki is under 100 nM.
